Source: PubChem BioAssay AID624099 (ICCB-Longwood, 2012)
Screen: 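Knock-downs relieving repression by E2 of an HPV18 LCR luciferase reporter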 (primary screen). System: human C33A cervical carcinoma cells (HPV-negative) stably expressing BPV1 E2 and an HPV18 LCR luciferase reporter. Reagents: siRNA pool against human genes, 40 nM. Timing: 72 h. Detection: 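Per-well luciferase luminescence, z-scored on each plate against the plate mean and SD with control wells left out, then averaged across three replicate plates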. Scale: mean z-score and z-score: higher = stronger reporter signal, weaker E2 silencing. Active means: 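Hit if mean z-score reaches 2 and two or more of three replicate z-scores also reach 2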.
In all, the deposit lists about 21,000 reagents; below is a part drawn at random. In the full data, 497 (2.4%) are marked active. 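Higher z means weaker E2 silencing; only reporter increases were scored, and knock-downs that hurt cell survival may mask genuine repressor factors.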 A number with no mark means an inactive call. Reagents against one gene are numbered here.

gene knocked down,reagent no.,mean z-score,"z-score, replicate A","z-score, replicate B","z-score, replicate C"
CTSL (GeneID 1514),1,0.3,0.17,0.22,0.52
GRIA3 (GeneID 2892),1,0.4,0.52,0.33,0.37
XKRX (GeneID 402415),1,-0.25,0.05,-0.52,-0.26
CHMP5 (GeneID 51510),1,-0.28,0.1,-0.59,-0.34
SWI5 (GeneID 375757),1,-1.56,-1.58,-1.37,-1.74
MAGEB5 (GeneID 347541),1,0.17,0.23,0.49,-0.19
SLC12A5 (GeneID 57468),1,-1.63,-1.71,-1.77,-1.42
KRT36 (GeneID 8689),1,-0.33,-0.58,-0.16,-0.27
UNC13D (GeneID 201294),1,0.1,0.19,0.24,-0.12
CMPK1 (GeneID 51727),1,1.04,1.19,1.03,0.91
QPRT (GeneID 23475),1,-1.15,-1.24,-1.31,-0.91
FAM199X (GeneID 139231),1,-1.6,-1.68,-1.68,-1.44
LOC392084 (retired record) (GeneID 392084),1,-0.33,-0.35,-0.56,-0.06
HSPA9 (GeneID 3313),1,0.45,0.77,0.46,0.12
MED13 (GeneID 9969),1,1.6,1.77,1.42,1.62
NCOR1P1 (GeneID 149934),1,-0.81,-1.02,-0.58,-0.82
LINC01344 (GeneID 400799),1,-0.21,-0.36,0.09,-0.35
DNASE2B (GeneID 58511),1,-0.34,-0.47,-0.78,0.22
FCMR (GeneID 9214),1,-0.04,0.02,-0.16,0.02
SPDYE8 (GeneID 728524),1,-1.56,-1.64,-1.46,-1.59
SPDYE8 (GeneID 728524),2,-0.02,-0.3,0.15,0.1
C2orf15 (GeneID 150590),1,0.88,0.87,0.79,0.97
CCDC187 (GeneID 399693),1,-0.47,-0.55,-0.53,-0.32
HRAS (GeneID 3265),1,-0.15,-0.03,-0.22,-0.21
LOC147975 (retired record) (GeneID 147975),1,0.42,0.82,-0.07,0.52
OR5H6 (GeneID 79295),1,-0.71,-0.75,-0.67,-0.71
UNC79 (GeneID 57578),1,0.44,1.06,0.51,-0.25
LONP2 (GeneID 83752),1,1.12,0.99,1.29,1.09
FREM3 (GeneID 166752),1,0.35,0.07,0.29,0.69
NAB1 (GeneID 4664),1,-1.79,-1.84,-1.74,-1.78
GAL3ST2 (GeneID 64090),1,-0.19,-0.44,-0.22,0.07
EPRS1 (GeneID 2058),1,2.17,1.95,2.57,1.97
PEMT (GeneID 10400),1,-0.2,-0.22,-0.25,-0.13
CALN1 (GeneID 83698),1,1.69,1.34,1.56,2.18
CDHR3 (GeneID 222256),1,0.6,0.77,0.69,0.36
LTBP2 (GeneID 4053),1,1.07,1.24,1.16,0.82
LOC401054 (retired record) (GeneID 401054),1,0.24,0.72,0.1,-0.09
KCNH8 (GeneID 131096),1,2.17 (active),2.54,2.06,1.91
MAT2B (GeneID 27430),1,0.65,0.76,0.37,0.84
RSKR (GeneID 124923),1,0.77,0.98,0.82,0.5
ERICH6 (GeneID 131831),1,-1.17,-1.27,-1.45,-0.78
CASK (GeneID 8573),1,0.89,0.61,0.79,1.28
DERL3 (GeneID 91319),1,-1.08,-1,-1.14,-1.11
LOC221344 (retired record) (GeneID 221344),1,-1.1,-0.65,-1.03,-1.62
PSORS1C2 (GeneID 170680),1,-0.31,-0.15,-0.64,-0.13
CDKN3 (GeneID 1033),1,-1.55,-1.33,-1.71,-1.6
MROH8 (GeneID 140699),1,-0.89,-0.38,-0.83,-1.47
KCNJ12 (GeneID 3768),1,-0.78,-0.97,-0.67,-0.72
SAP30L (GeneID 79685),1,0.12,0.26,0.08,0.02
CASP8 (GeneID 841),1,-1.13,-1.06,-1.3,-1.04
LOC388420 (retired record) (GeneID 388420),1,-0.97,-1.22,-0.83,-0.87
RBM24 (GeneID 221662),1,-0.86,-0.8,-0.73,-1.06
ATP6V1C2 (GeneID 245973),1,-0.36,-0.23,-0.4,-0.45
FGF10 (GeneID 2255),1,-0.34,-0.24,-0.44,-0.34
ZNF280B (GeneID 140883),1,1.17,0.8,1.35,1.35
KRTAP20-1 (GeneID 337975),1,0.27,0.2,0.17,0.43
LOC153778 (retired record) (GeneID 153778),1,1.02,1.56,0.59,0.92

Entries above called active, once more:
gene knocked down,reagent no.,mean z-score,"z-score, replicate A","z-score, replicate B","z-score, replicate C"
KCNH8 (GeneID 131096),1,2.17 (active),2.54,2.06,1.91
